From the supplement of paper PMC9931576 come the findings set out here.

Sequences and labels used below:
B1: BD55-6287 (protein)
chain 1: QVLLVESGGGVVQTGRSLRLSCAASGFTFSTSAIHWVRQAPGKGLEWVAVISYNGNKKYYADSVKGRFTISRDNSEDTVSLQMNSLGPEDTAVYYCARDSGWYHYFDHWGQGTLVTVSS
chain 2: QSVLTQPPSVSGAPGQRVTISCTGSTSNIGAGYDVYWYQQLPGAAPKVLIYLNSNRPSGVPDRFSGSKSGPSASLAITGLQVEDEADYYCQSYDSSLGVLVFGGGTKLTVL
B2: BD55-6272 (protein)
chain 1: QVQLVQSGAEVRKPGSSVKVSCKASGGTFSSYAVSWVRQAPGQGLEWMGGIIPLFGTSNYAQKFQARVTITADGSTDTVYMELSSLTSEDTALYYCARAMDTALPPFFDYWGQGTLVTVSS
chain 2: EIVLTQSPATLSLSPGERATLSCKASQSVGSYLAWYQQKPGQAPRVLIYDASNRATGIPARFSGSGSGTDFTLTISSLEPEDFAVYYCQQRSNWPLTFGGGTKVEIK
B3: BD55-1205 (protein)
chain 1: EVQLVESGGGLVQPGGSLRLSCAVSGFTVSRNYMTWARQAPGKGPEWVSVIYPGGSTFYADSVKGRFTISRDSSKNILYLQMNSLRVDDTAVYYCARDLTIRGEASWGQGTLVTVSS
chain 2: EIVMTQSPATLAVSPGERATLSCRASESFNSNLAWYQQKPGQAPRLLIYGASTRASDVPARFSGSGSGTEFTLTISSVQSEDFAVYYCQQYGDWPLWTFGQGTKVEI
B4: BD55-6252 (protein)
chain 1: EVQLVQSGAEVKKPGESLRISCKGSGYSFSNFWITWVRQMPGKGPEWIGRIYPSDSYTTYNPSFQGHVTISADKSISTAYLQWSSLKASDTAMYYCASQQLERMGYYYMDVWGEGTTVTVSS
chain 2: DIQMTQSPSSLSASIGDRVTITCRASQTISNYLNWYQQKPGKAPKLLIYEASTLQSGVPSRFGGSGSGTDFTLTISSLQPEDFATYYCQQSYSTPTWTFGQGTKVEIK
B5: BD55-6276 (protein)
chain 1: QVLLVQSGAEVEKPGASVKVSCKASGYTFTNYYIHWVRQAPGQGLEWMGMINPSGGSTTFAQKFQGRVTMTSDTSTYTVYMEVSGLISEDTAVYYCARDGGSAASHYYYYMDVWGKGTTVTVSS
chain 2: B4 chain 2 with I15V, T28S, Y32F, K42E, L46V, E50A, T53N, G63S, S91G, S93T
B6: BD55-6247 (protein)
chain 1: EVQLVESGGGLVQPGGSLRLSCAASRFKFSSYWMTWVRQAPGKGLECVANIRQDGGEKYYVDSVKGRFTISRDNAKNSLYLQMNSLRAEDTAVYYCAREYRVSGYDILTGYNGISYYMDVWGKGTTVTVSS
chain 2: QSVLTQPPSVSAAPGQKVTISCSGSSSNIGNHYVSWYRQLPGTAPKLLINDNNKRPSGIPDRFSGSKSGTSATLDITGLQTGDEADYYCGTWDSSLSVVVFGGGTKLTVL
B7: BD55-6259 (protein)
chain 1: QVHLVQSGAEVKKPGASVKLSCKTSGNTFSTNYMHWVRQAPGQGLEWMGFINPTSGTTDYAQKFQGRVTVTSDTSTSTIYMELTSLTSEDTAIYYCARESSGVMVAENHFDYWGQGTRVTVSS
chain 2: EVVLTQSPGILSLSLGERATLSCRASQHVSSNYLAWYQQKSGQAPRLLIYGASTRATGIPDRFSGSGSGTHFTLTISRLEPEDFAVYYCQQYYTSPRTFGQGTRMEIK
B8: BD55-6248 (protein)
chain 1: QVQLVQSGAEVKKPGSSVKVSCKASGDTVSAYGISWVRQAPGQGLEWMGRIIPILGRANYAQNFQGRVTITADTSTSTAYMELSSLRSEDTAVYFCARDLLNAVTTSESPPVGIWGQGTLVTVSS
chain 2: DIVMTQSPDSLAVSLGERATINCKSSQSVLYTSNNKNYLAWYQQKPGQPPKLLIYWASTRESGVPDRFSGSGSGTDFTLTISSLQAEDVAVYYCQQYYSAPLTFGPGTKVDIK
B9: BD55-6253 (protein)
chain 1: QGQLQESGPGLVRPSETLSLTCAVSGDSSSNYYWTWIRQPPGKGLEWVGHVHYTGTTNYSPSLKRRVTISLDTSKNQFSLKLSSVTAADTAVYYCTRAPWLGYYHPVGAFDIWGQGTTVTVSS
chain 2: B8 chain 2 with R18G, T32N, I54L, E61D, A100P, P106G, D111E
B10: BD55-6263 (protein)
chain 1: HVQLQESGPGLVKPSQTLSLICNVSGGSISSGSYYWNWVRQPAGKGLEWIGHMYSGGRTSYNPSLKSRVTISVDTSKNQLSLSLKSATAADTAVYYCAREGEGGPIYSGYDHLDHYGMDVWGQGTTVTVSS
chain 2: SYELTQPPSVSVSPGQTATISCSGDKLADSYAFWYQQKPGQSPVLVIYRDNRRPSGIPERFSGSNSGNTATLTISGTQAMDESDYYCQAWDASTMIFGGGTKLTVL
B11: BD55-6284 (protein)
chain 1: EVQLVESGGGLVQPGRSLRLSCAASGFTFDDYAMHWVRQAPGKGLEWVSGISWNSASVGYADSVRGRFTISRDNAKNSLYLQMNSLRAEDTALYYCASMLTFGGDSAFDYWGQGTLVTVSS
chain 2: IQLTQSPSSLSASVGDRVTIACRASQGISTYLAWYQQKPGKAPKLLIYAASILQSGVPSRFSGSGSGTDFTLTISSLQPEDFATYYCQQLNSYPYTFGQGTKLEIK
B12: BD55-6251 (protein)
chain 1: QLQLVESGGGVVQPGRSLRLSCAASGFIFSDFDMHWVRQAPGKGLEWMAVIWYDGSEQYYGDSVKGRFTISRDNSRNTLYLQMNGLRAEDTAMYYCARLTTERKYSGYDHVSQEPNIWGHGTLVAVSS
chain 2: SSELTQDPAVSVALGQTVRITCQGDGLRSYYATWSQQKPGQAPVVVIYGKNKRPSGIPDRFSGSDSGDTAYLTITGAQAEDEADYYCSSRDRGEYQYVFGTGTKVTVL

Changes are numbered by the printed parent chain. Human monoclonal antibodies against the spike receptor-binding domain (heavy:light variable regions). IC50 against pseudoviruses bearing the spike of naturally observed variants; lower = stronger; >10 µg/ml means not reached at the top dose. No active / inactive call. The stated detection limit is 0.0005 µg/ml; values near or below 0.001 µg/ml lie at the floor of the assay.

In one test the target is SARS-CoV-2 Omicron BA.1 spike pseudovirus. The experiment in a line: pseudovirus neutralization IC50; higher = weaker neutralization. The procedure: (§1)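 Single-round VSV luciferase pseudovirus mixed with antibody dilutions for 1 h and put on Huh-7 cells for about a day; IC50 from the dose curve.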
With B1, the “pseudovirus neutralization IC50” value was greater than 10 µg/mL.
B2: the “pseudovirus neutralization IC50” value is greater than 10 µg/mL.
The same measure, in the same setting: then B3, with 0.0052 µg/mL.
Consider B4, for which the “pseudovirus neutralization IC50” value was greater than 10 µg/mL.
With B5, the “pseudovirus neutralization IC50” value is greater than 10 µg/mL.
The same measure, in the same setting: then B6, with greater than 10 µg/mL; and B7, with greater than 10 µg/mL.
On to B8, for which the “pseudovirus neutralization IC50” value was greater than 10 µg/mL.
In the case of B9, the “pseudovirus neutralization IC50” value was greater than 10 µg/mL.
Take B10: the “pseudovirus neutralization IC50” value is greater than 10 µg/mL.
The same measure, in the same setting: then B11, with greater than 10 µg/mL; and B12, with greater than 10 µg/mL.

The target in another test is SARS-CoV-2 Omicron BA.2 spike pseudovirus. Described as above. The procedure: as §1
As to B1, the “pseudovirus neutralization IC50” value is greater than 10 µg/mL.
Still for that read-out and setting: in the case of B2 it was greater than 10 µg/mL; in that of B3, 0.00551 µg/mL.
Same read-out and setting: in the case of B4 it was greater than 10 µg/mL; in that of B5, greater than 10 µg/mL; in that of B6, greater than 10 µg/mL.
As to B7, the “pseudovirus neutralization IC50” value is greater than 10 µg/mL.
On to B8, for which the “pseudovirus neutralization IC50” value was greater than 10 µg/mL.
With B9, the “pseudovirus neutralization IC50” value is greater than 10 µg/mL.
The same measure, in the same setting: in the case of B10 it was greater than 10 µg/mL; in that of B11, greater than 10 µg/mL; in that of B12, greater than 10 µg/mL.

Another test has as its target SARS-CoV-2 Omicron BA.2.75 spike pseudovirus. Described as above. On the procedure:
as §1
For B1, the “pseudovirus neutralization IC50” value is greater than 10 µg/mL.
On the same count and under the same terms, in the case of B2 it was greater than 10 µg/mL; in that of B3, 0.00413 µg/mL.
Regarding B4, the “pseudovirus neutralization IC50” value is greater than 10 µg/mL.
As for B5, the “pseudovirus neutralization IC50” value was greater than 10 µg/mL.
Turning to B6, the “pseudovirus neutralization IC50” value was greater than 10 µg/mL.
As to B7, the “pseudovirus neutralization IC50” value is greater than 10 µg/mL.
For B8, the “pseudovirus neutralization IC50” value was greater than 10 µg/mL.
The same measure, in the same setting: in the case of B9 it was greater than 10 µg/mL; in that of B10, greater than 10 µg/mL.
Take B11: the “pseudovirus neutralization IC50” value is greater than 10 µg/mL.
Regarding B12, the “pseudovirus neutralization IC50” value is greater than 10 µg/mL.

Another test deals with SARS-CoV-2 Omicron BA.5 spike pseudovirus. The description is as above. On the procedure:
as §1
Consider B1, for which the “pseudovirus neutralization IC50” value was greater than 10 µg/mL.
In the case of B2, the “pseudovirus neutralization IC50” value is greater than 10 µg/mL.
Still for that read-out and setting: then B3, with 0.00348 µg/mL; and B4, with greater than 10 µg/mL.
As for B5, the “pseudovirus neutralization IC50” value was greater than 10 µg/mL.
B6: the “pseudovirus neutralization IC50” value is greater than 10 µg/mL.
For B7, the “pseudovirus neutralization IC50” value is greater than 10 µg/mL.
Take B8: the “pseudovirus neutralization IC50” value is greater than 10 µg/mL.
Still for that read-out and setting: in the case of B9 it was greater than 10 µg/mL; in that of B10, greater than 10 µg/mL; in that of B11, greater than 10 µg/mL.
For B12, the “pseudovirus neutralization IC50” value was greater than 10 µg/mL.

The next test deals with SARS-CoV-2 Omicron BQ.1.1 spike pseudovirus. Described as above. On the procedure: as §1
B1: the “pseudovirus neutralization IC50” value is greater than 10 µg/mL.
As to B2, the “pseudovirus neutralization IC50” value is greater than 10 µg/mL.
Consider B3, for which the “pseudovirus neutralization IC50” value was determined as 0.0139 µg/mL.
The same measure, in the same setting: then B4, with greater than 10 µg/mL.
Turning to B5, the “pseudovirus neutralization IC50” value was greater than 10 µg/mL.
In the case of B6, the “pseudovirus neutralization IC50” value is greater than 10 µg/mL.
For B7, the “pseudovirus neutralization IC50” value was greater than 10 µg/mL.
As for B8, the “pseudovirus neutralization IC50” value is greater than 10 µg/mL.
Take B9: the “pseudovirus neutralization IC50” value is greater than 10 µg/mL.
As for B10, the “pseudovirus neutralization IC50” value was greater than 10 µg/mL.
For the molecule B11, the “pseudovirus neutralization IC50” value was greater than 10 µg/mL.
B12: the “pseudovirus neutralization IC50” value is greater than 10 µg/mL.

In the next test the target is SARS-CoV-2 Omicron XBB spike pseudovirus. The description is as above. On the procedure: as §1
Consider B1, for which the “pseudovirus neutralization IC50” value was greater than 10 µg/mL.
The same measure, in the same setting: in the case of B2 it was greater than 10 µg/mL; in that of B3, 0.00635 µg/mL.
Consider B4, for which the “pseudovirus neutralization IC50” value is greater than 10 µg/mL.
For the molecule B5, the “pseudovirus neutralization IC50” value was greater than 10 µg/mL.
Turning to B6, the “pseudovirus neutralization IC50” value was greater than 10 µg/mL.
On the same count and under the same terms, then B7, with greater than 10 µg/mL.
As to B8, the “pseudovirus neutralization IC50” value was greater than 10 µg/mL.
With B9, the “pseudovirus neutralization IC50” value is greater than 10 µg/mL.
Consider B10, for which the “pseudovirus neutralization IC50” value is greater than 10 µg/mL.
Same read-out and setting: in the case of B11 it was greater than 10 µg/mL; in that of B12, greater than 10 µg/mL.

In another test the target is SARS-CoV-2 early D614G spike pseudovirus. The description is as above. On the procedure: as §1
Regarding B1, the “pseudovirus neutralization IC50” value is greater than 10 µg/mL.
Still for that read-out and setting: in the case of B2 it was greater than 10 µg/mL; in that of B3, 0.00331 µg/mL; in that of B4, greater than 10 µg/mL.
B5: the “pseudovirus neutralization IC50” value is greater than 10 µg/mL.
For B6, the “pseudovirus neutralization IC50” value was greater than 10 µg/mL.
With B7, the “pseudovirus neutralization IC50” value is greater than 10 µg/mL.
For the molecule B8, the “pseudovirus neutralization IC50” value was greater than 10 µg/mL.
B9: the “pseudovirus neutralization IC50” value is greater than 10 µg/mL.
On the same count and under the same terms, in the case of B10 it was 0.13 µg/mL; in that of B11, greater than 10 µg/mL; in that of B12, 0.0874 µg/mL.
